Laboratory results reported in patent publication US20220017572A1, “GEMINOID LIPOPEPTIDE COMPOUNDS AND THEIR USES” (Erasmus University Medical Center Rotterdam, priority 2016, published 2022).
Where two headings read alike, the source gives them in different places.

Chains of the proteins cited; added tags and fusions are not shown. Residues count along the entry.
UniProt P14340, 1476-1653 limits assumed: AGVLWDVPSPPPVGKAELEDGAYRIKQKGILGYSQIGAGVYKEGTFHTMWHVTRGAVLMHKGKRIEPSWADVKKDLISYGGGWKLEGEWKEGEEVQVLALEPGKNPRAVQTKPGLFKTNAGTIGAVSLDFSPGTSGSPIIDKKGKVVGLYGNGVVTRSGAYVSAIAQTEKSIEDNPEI

Biological target: dengue 2 protease (Dengue virus type 2, UniProt P14340)
Test: Dengue 2 protease inhibition, hydrolysis of Z-RR-MCA
Description: The active site of the dengue protease is in the N-terminal part of NS3 which is also a serine protease with catalytic triad Asp79-His51-Ser135, but requires […] (CF40) for activity; the inhibition reported here was studied on a […] (CF40-GGGGSGGGG-NS3; (SEQ ID NO:54)) which has also been structurally characterized [Erbel et al., 2006; Luo et al. 2008].
Substrate was added in a concentration 10 times the Km, and the inhibitor compounds of type C (C16-KGnK-C16, C16-KAnK-C16, and C16-RAnR-C16) were added in increasing concentrations (1.0, 5.0, 10.0, 20.0, 40.0 μL) from a stock solution of 2 mg in 1 mL DMSO. The residual activity was measured in a Hitachi F2500 spectrofluorimeter, and plots were fitted using the Grafit® software (Erithracus Software, Horley, Surrey, UK). All the assays were calculated by the Morrison equation for competitive inhibition (eq. 1, [Morrison, 1969]). The amount of substrate used for the tight binding titration experiments follow all the requirements, where [S]<<Km for all enzymes, so the Kiapp=Ki.
Range of Proteases Inhibited by Geminoids, Determination of Ki with Z-RR-MCA (Dengue 2 Protease) and Ac-RVRR-MCA (Furin) (SEQ ID NO:60).

[1] = read-out: Ki Dengue 2, gemini surfactants of type B, Table 3

Question: How did the Ki [1] turn out when `CCCCCCCCCCCC(=O)N[C@@H](CCCCN)C(=O)NCCCCCCNC(=O)[C@H](CCCCN)NC(=O)CCCCCCCCCCC` was run?
Answer: 3.1 µM

Question: For `CCCCCCCCCCCC(=O)N[C@@H](CCCCN)C(=O)NCCNC(=O)[C@H](CCCCN)NC(=O)CCCCCCCCCCC`, which Ki (read-out: Ki for dengue 2 protease, text of discussion) is on record?
Answer: 1.3 µM

Question: For `CCCCCCCCCCCCCC(=O)N[C@@H](CCCCN)C(=O)NCCNC(=O)[C@H](CCCCN)NC(=O)CCCCCCCCCCCCC`, which Ki [1] is on record?
Answer: 3.33 µM

Question: How did the Ki [1] turn out when `CCCCCCCC(=O)N[C@@H](CCCCN)C(=O)NCCNC(=O)[C@H](CCCCN)NC(=O)CCCCCCC` was run?
Answer: 4.54 µM

Question: For `CCCCCCCCCC(=O)N[C@@H](CCCCN)C(=O)NCCCCCCNC(=O)[C@H](CCCCN)NC(=O)CCCCCCCCC`, which Ki [1] is on record?
Answer: 3.45 µM
